Pooled drug test results. Numbers come from NIAID ChemDB, via PubChem.

Shared fields: tests in culture; species: HIV-2; read-out: EC50

Conditions beyond the fields shown may differ between rows. Blank or dashed fields: not listed here. ECn: concentration that inhibits the pathogen or its effect by n%.

structure,strain or isolate,changes,read by,conditions,cells,value
Fc1cccc(F)c1[C@@H]1SCc2nc3ccccc3n21,ROD,,cytopathic effect / MTT,,MT-4,>11 µg/mL
Nc1ncnc2c1ncn2[C@H]1CC[C@@H](CO)O1,ROD,,,,MOLT-4/C8 + MOLT-4,5.5 µM
Nc1ccn([C@H]2C=C[C@@H](CO)O2)c(=O)n1,ROD,,cytopathic effect / trypan blue,,MT-4,0.7 µM
Cc1cc(C#Cc2cccnc2)cc(C)c1Oc1ccnc(Nc2ccc(C#N)cc2)n1,ROD,,MTT,,MT-4,>3.476 µM
CC(C)(C)OC(=O)Nc1cccc(B(O)O)c1,ROD,,syncytia,,CEM,≥250 µM
Cc1cn([C@H]2C[C@H](N=[N+]=[N-])[C@@H](CO)O2)c(=O)[nH]c1=O,LAV-2,,virus yield,,CEM,<0.1 µM
OB(O)c1ccccc1/C=N/NC(=S)Nc1ccccc1,ROD,,syncytia,,CEM,>50 µM
O=c1[nH]cnc2c1ncn2[C@H]1CC[C@@H](CO)O1,ROD,,cytopathic effect / MTT,0% human serum,MT-4,2.71 µM
Cc1cc(C#Cc2ccc(N)cc2)cc(C)c1Oc1ccnc(Nc2ccc(C#N)cc2)n1,ROD,,MTT,,MT-4,>5.385 µM
CCOCn1c(Cc2ccccc2)c(C(C)C)c(=O)[nH]c1=O,EHO,,cytopathic effect / MTT,,MT-4,5.6 µM
Cc1cc(C#CC2CC2)cc(C)c1Oc1ccnc(Nc2ccc(C#N)cc2)n1,ROD,,MTT,,MT-4,>3.81 µM
CS(=O)(=O)c1ccc(OP(=O)(OC[C@@H]2CC[C@H](n3ccc(=O)[nH]c3=O)O2)OC[C@@H]2CC[C@H](n3ccc(=O)[nH]c3=O)O2)cc1,ROD,,cytopathic effect / trypan blue,,MT-4,>250 µM
OB(O)c1ccccc1,ROD,,syncytia,,CEM,>250 µM
Nc1ccn([C@H]2CC[C@@H](CO)O2)c(=O)n1,ROD,,cytopathic effect,,CEM + CEM-SS,0.0621 µM
OB(O)c1ccccc1COc1c(F)cccc1F,ROD,,syncytia,,CEM,>50 µM
Cc1cn([C@H]2C[C@H](N=[N+]=[N-])[C@@H](COP3(=O)OCc4cc([N+](=O)[O-])ccc4O3)O2)c(=O)[nH]c1=O,,,,,CEM + CEM/O,0.02 µM
Cc1cn([C@@H]2O[C@H](CO[Si](C)(C)C(C)(C)C)C3(OS(=O)(=O)C=C3N)[C@H]2O[Si](C)(C)C(C)(C)C)c(=O)n(CCOC(=O)[C@@H](N)C(C)C)c1=O,ROD,,cytopathic effect / trypan blue,,MT-4,>10 µM
CC(C)[C@H](NC(=O)[C@H](CCCN=C(N)N)NC(=O)N[C@@H](Cc1ccccc1)C(=O)O)C(=O)N[C@@H](C=O)Cc1ccccc1,ROD,,cytopathic effect / MTT,,MT-4,>10 µM
Cc1cc(C#Cc2cccc(N)c2)cc(C)c1Oc1ccnc(NC2CCN(Cc3ccc(S(N)(=O)=O)cc3)CC2)n1,ROD,,MTT,,MT-4,>0.732 µM
CS(=O)(=O)c1ccc(OP(=O)(OC[C@@H]2CC[C@H](n3cnc4c(=O)[nH]cnc43)O2)OC[C@@H]2CC[C@H](n3cnc4c(=O)[nH]cnc43)O2)cc1,ROD,,cytopathic effect / trypan blue,,MT-4,≥250 µM
OB(O)c1ccc(/C=N\NC(=S)Nc2ccccc2)cc1,ROD,,syncytia,,CEM,≥50 µM
CS(=O)(=O)c1ccc(OP(=O)(OC[C@@H]2C=C[C@H](n3ccc(N)nc3=O)O2)OC[C@@H]2C=C[C@H](n3ccc(N)nc3=O)O2)cc1,ROD,,cytopathic effect / trypan blue,,MT-4,6 µM
CCc1c(Sc2ccccc2)nc(SCC(=O)c2ccc(OC)cc2)[nH]c1=O,ROD,,cytopathic effect / MTT,,MT-4,>181 µM
COC(=O)[C@H](C)NP(=O)(OC[C@@H]1CC[C@H](n2cnc3c(N)ncnc32)O1)Oc1ccccc1,ROD,,,,C8166,0.05 µM
Cc1cc(C#Cc2cccc(N)c2)cc(C)c1Oc1ccnc(NC2CCN(Cc3ccc(C(N)=O)cc3)CC2)n1,ROD,,MTT,,MT-4,>0.198 µM
Cc1cn([C@H]2C[C@H](N=[N+]=[N-])[C@@H](COP(=O)(OCCSC(=O)C(C)(C)C)N3CCOCC3)O2)c(=O)[nH]c1=O,ROD,,cytopathic effect / trypan blue,,CEM + CEM TK-,2 µM
Cc1cn([C@@H]2O[C@H](CO[Si](C)(C)C(C)(C)C)[C@@]3(OS(=O)(=O)C=C3N)[C@H]2O[Si](C)(C)C(C)(C)C)c(=O)[nH]c1=O,ROD,,syncytia,,CEM,>10 µM
O=C(CC[C@H](NC(=O)OCc1ccccc1)C(=O)O)Nc1ccc(B(O)O)cc1,ROD,,syncytia,,CEM,>50 µM
Cc1cn([C@@H]2O[C@H](CO[Si](C)(C)C(C)(C)C)C3(OS(=O)(=O)C=C3N)[C@H]2O[Si](C)(C)C(C)(C)C)c(=O)n(CC(=O)N[C@@H](CC(=O)O)C(=O)O)c1=O,ROD,,syncytia,,CEM,140 µM
O=C(CC[C@H]1C(=O)OCN1C(=O)OCc1ccccc1)Nc1ccc(B(O)O)cc1,ROD,,syncytia,,CEM,>50 µM
Cc1cc2c(c(-c3cc(C)cc4c3OP(=O)(OC[C@@H]3C=C[C@H](n5cc(C)c(=O)[nH]c5=O)O3)OC4)c1)OP(=O)(OC[C@@H]1C=C[C@H](n3cc(C)c(=O)[nH]c3=O)O1)OC2,,,cytopathic effect / syncytia,,CEM/0 (wild type),0.41 µM
O=C(O)/C=C(\CC(=O)O)C(=O)O,ROD,,cytopathic effect / MTT,,MT-4,>25 µM
O=CN(CCC(=O)O)c1ccc(B(O)O)cc1,ROD,,syncytia,,CEM,>250 µM
Cc1cc(/C=C/c2ccccc2)cc(C)c1Oc1ccnc(Nc2ccc(C#N)cc2)n1,ROD,,MTT,,MT-4,>18.5 µM
Nc1ncnc2c1ncn2[C@H]1CC[C@@H](CO)O1,ROD,,cytopathic effect / trypan blue,,MT-4,6 µM
C[C@H](Cn1cnc2c(N)ncnc21)OCP(=O)(O)O,ROD,,,,MT-4,4.9 µM
CC(C)Nc1cccnc1N1CCN(C(=O)c2cc3cc(NS(C)(=O)=O)ccc3[nH]2)CC1,EHO,RT-S102L E219D,cytopathic effect / MTT,,MT-4,>47.3 µM
Cc1cn([C@H]2C=C[C@@H](COP(=O)(OC[C@@H]3C=C[C@H](n4cc(C)c(=O)[nH]c4=O)O3)Oc3ccc(S(C)(=O)=O)cc3)O2)c(=O)[nH]c1=O,ROD,,cytopathic effect / trypan blue,,MT-4,3.6 µM
Nc1nc2c(ncn2CCOCP(=O)(O)O)c(=O)[nH]1,ROD,,,,CEM,0.53 µM
Cc1cn([C@H]2C=C[C@@H](CO)O2)c(=O)[nH]c1=O,ROD,,cytopathic effect / trypan blue,,MT-4,0.32 µM
Nc1ncnc2c1ncn2CCOCP(=O)(O)O,,,trypan blue,,MT-4,7.5 µM
COC(=O)C(Cc1ccccc1)NC(=O)[C@@H](NC(=O)[C@@H](C[C@H](O)[C@H](CC1CCCCC1)NC(=O)[C@@H](NC(=O)[C@H](Cc1ccccc1)CS(=O)(=O)C(C)(C)C)C(C)C)C(C)C)C(C)C,EHO,RT-E219D,cytopathic effect / MTT,,MT-4,5 µM
Cc1cn([C@H]2C[C@H](F)[C@@H](CO)O2)c(=O)[nH]c1=O,336,,ELISA,,PBMC,0.006 µM

5 of the rows above, restated:

structure,strain or isolate,changes,read by,conditions,cells,value
CCOCn1c(Cc2ccccc2)c(C(C)C)c(=O)[nH]c1=O,EHO,,cytopathic effect / MTT,,MT-4,5.6 µM
COC(=O)[C@H](C)NP(=O)(OC[C@@H]1CC[C@H](n2cnc3c(N)ncnc32)O1)Oc1ccccc1,ROD,,,,C8166,0.05 µM
Cc1cn([C@H]2C[C@H](F)[C@@H](CO)O2)c(=O)[nH]c1=O,336,,ELISA,,PBMC,0.006 µM
Cc1cc(C#Cc2cccc(N)c2)cc(C)c1Oc1ccnc(NC2CCN(Cc3ccc(S(N)(=O)=O)cc3)CC2)n1,ROD,,MTT,,MT-4,>0.732 µM
Cc1cc(C#Cc2cccc(N)c2)cc(C)c1Oc1ccnc(NC2CCN(Cc3ccc(C(N)=O)cc3)CC2)n1,ROD,,MTT,,MT-4,>0.198 µM